Anti-infective test results gathered from many reports (values: NIAID ChemDB through PubChem).

Shared fields: tests on isolated targets; organism: HIV-1; protein: Reverse transcriptase; read-out: IC50

a–b is a range or a potency band. ICn: concentration for n% inhibition. Rows are shuffled and stem from different studies. Blank or dashed fields: not listed here.

smiles,strain,mutations,method,result
O=C(CSc1nnc(Br)n1-c1ccc(C2CC2)cc1C(F)(F)F)Nc1ccc(C(=O)O)cc1Cl,-,RT-Y181C,nucleotide incorporation / radiometric,0.05–0.1 µM
CC(C)(C)c1ccc(-n2nnnc2SCC(=O)Nc2ccc(NC(=O)Cc3ccc([N+](=O)[O-])cc3)cc2Cl)c(Cl)c1,-,RT-K103 Y181C,PicoGreen / fluorescence,<1 µM
Cc1cc(C)c2ccccc2c1-n1c(SCC(=O)Nc2ccc(S(N)(=O)=O)cc2Cl)nnc1C(F)(F)F,-,RT-Y181C,nucleotide incorporation / radiometric,<0.05 µM
CC(C)(C#Cc1ccc(NC(=O)CSc2nnnn2-c2cc(Cl)c(C3CC3)cc2Cl)c(Cl)c1)C(=O)O,-,RT-K103 Y181C,PicoGreen / fluorescence,<1 µM
c1ccc2c(c1)CCN(c1nn3c(-c4ccsc4)nnc3c3ccccc13)C2,IIIB,-,RT activity / fluorescence,19.9 µM
CC(C)(C)c1ccc(-n2nnnc2SCC(=O)Nc2ccc(C#CCN3CCCCC3)cc2Cl)c(Cl)c1,WT,-,PicoGreen / fluorescence,<1 µM
CCN1c2ncc(C3(c4ccccc4)CO3)cc2C(=O)N(C)c2ccc(Cl)nc21,WT,-,nucleotide incorporation / radiometric,<1 µM
CCc1ccc(-n2c(SCC(=O)Nc3ccc(S(N)(=O)=O)cc3C)nnc2C(F)F)c2ccccc12,-,RT-Y188L,nucleotide incorporation / radiometric,>0.1 µM
Cc1cc(C2CC2)cc(C)c1-n1c(Br)nnc1SCC(=O)Nc1ccc(C(=O)O)cc1Cl,-,RT-Y181C,nucleotide incorporation / radiometric,<0.05 µM
Cc1cc(C(=O)O)ccc1NC(=O)CSc1nnc(C(F)F)n1-c1ccc(C)c2c1CCCC2,-,RT-Y181C,nucleotide incorporation / radiometric,>0.1 µM
CC(C)(C)c1ccc(-n2nnnc2SCC(=O)Nc2ccc(OCCN3CCCCC3)cc2Cl)c(Cl)c1,-,RT-K103 Y181C,PicoGreen / fluorescence,<1 µM
Cc1cc(-c2ccc[n+]([O-])c2)ccc1OCCc1cnc2c(c1)C(=O)Nc1c(C)ccnc1N2C1CC1,IIIB,RT-K103N Y181C,nucleotide incorporation / radiometric,0.05–0.1 µM
C=C(C)C#Cc1ccc(NC(=O)CSc2nnnn2-c2ccc(C3CC3)cc2Cl)c(Cl)c1,WT,-,PicoGreen / fluorescence,<1 µM
CCc1cc(C2CC2)ccc1-n1c(Br)nnc1SCC(=O)Nc1ccc(C(=O)O)cc1Cl,-,-,nucleotide incorporation / radiometric,<0.05 µM
CCN1c2ncc(CCOc3ccc(-c4cc(C)nc(C)c4)cc3C)cc2C(=O)N(C)c2cccnc21,IIIB,RT-K103N Y181C,nucleotide incorporation / radiometric,<0.05 µM
COC(=O)c1ccc2c(c1)CN(c1nn3c(C)nnc3c3ccccc13)CC2,IIIB,-,RT activity / fluorescence,2.01 µM
CC(C)(C)c1ccc(-n2nnnc2SCC(=O)Nc2ccc(C(=O)NCCO)cc2Cl)c(Cl)c1,-,RT-K103 Y181C,PicoGreen / fluorescence,<1 µM
CCCCCCNC(=O)c1ccc(NC(=O)CSc2nnc(Br)n2-c2ccc(CC)c3ccccc23)c(Cl)c1,-,RT-Y181C,nucleotide incorporation / radiometric,<0.05 µM
CCN1c2ncc(CCOc3ccc(CC(C)C(=O)O)c4ccccc34)cc2C(=O)N(C)c2ccc(Cl)nc21,WT,-,nucleotide incorporation / radiometric,<0.1 µM
Cc1cc(C)c2ccccc2c1-n1c(SCC(=O)Nc2ccc(S(N)(=O)=O)cc2Cl)nnc1C(F)F,-,RT-Y188L,nucleotide incorporation / radiometric,>0.1 µM
CCN1c2ncc(CCc3cc[n+]([O-])cc3)cc2C(=O)N(C)c2ccc(Cl)nc21,-,RT-Y181C,nucleotide incorporation / radiometric,<1 µM
COc1ccc2c(c1)CN(c1nn3c(-c4cccs4)nnc3c3ccccc13)CC2,KER2008,-,RT activity / fluorescence,30.4 µM
O=C(CSc1nnc(Br)n1-c1ccc(C2CC2)cc1Cl)Nc1ccc(S(=O)(=O)O)cc1Cl,-,RT-Y181C,nucleotide incorporation / radiometric,<0.05 µM
CC(C)(C#Cc1ccc(NC(=O)CSc2nnnn2-c2ccc(C(C)(C)C)cc2Cl)c(Cl)c1)OCC(=O)NCCO,-,RT-K103 Y181C,PicoGreen / fluorescence,<1 µM
CCN1c2ncc(CCOc3cccc4c3ccc[n+]4[O-])cc2C(=O)Nc2c(C)cc(Cl)nc21,-,RT-K103N Y181C,nucleotide incorporation / radiometric,0.091 µM
Cc1nnc2c3ccccc3c(N3CCc4ccc(N)cc4C3)nn12,98US_MSC5016,-,RT activity / fluorescence,8.28 µM
O=C(CSc1nnc(C(F)F)n1-c1ccc(C2CC2)c2ccccc12)Nc1ccc(C(=O)O)cc1Cl,-,RT-Y181C,nucleotide incorporation / radiometric,<0.05 µM
CCC(N)(C#Cc1ccc(NC(=O)CSc2nnnn2-c2ccc(C3CC3)cc2Cl)c(Cl)c1)CC,-,RT-K103 Y181C,PicoGreen / fluorescence,<1 µM
CCN1c2ncc(CCOc3ccc(C(=O)O)c4c3CCC4)cc2C(=O)N(C)c2ccc(Cl)nc21,-,RT-K103N Y181C,nucleotide incorporation / radiometric,<0.1 µM
CCc1ccc(-n2c(Br)nnc2SCC(=O)Nc2ccc(S(N)(=O)=O)cc2Cl)c2ccccc12,-,RT-Y188L,nucleotide incorporation / radiometric,0.05–0.1 µM
CC(C)(C)c1ccc(-n2nnnc2SCC(=O)Nc2ccc(NC(=O)c3ccccc3Cl)cc2Cl)c(Cl)c1,WT,-,PicoGreen / fluorescence,<1 µM
CCc1ccc(-n2c(Br)nnc2SCC(=O)Nc2ccc(C(=O)O)cc2Cl)c2ccccc12,-,RT-Y188L,nucleotide incorporation / radiometric,>0.1 µM
Cn1cc(NC(=O)c2ccc(NC(=O)CSc3nnnn3-c3ccc(C(C)(C)C)cc3Cl)c(Cl)c2)cc1C(=O)O,WT,-,PicoGreen / fluorescence,<1 µM
Cc1cc(C)c2ccccc2c1-n1c(CF)nnc1SCC(=O)Nc1ccc(S(N)(=O)=O)cc1Cl,-,RT-Y188L,nucleotide incorporation / radiometric,>0.1 µM
CS(=O)(=O)Nc1ccc2c(c1)CN(c1nn3c(C4CC4)nnc3c3ccccc13)CC2,KER2008,-,RT activity / fluorescence,0.57 µM
CCc1ccc(-n2c(C)nnc2SCC(=O)Nc2ccc(S(N)(=O)=O)cc2Cl)c2c1CCCC2,-,RT-Y188L,nucleotide incorporation / radiometric,>0.1 µM
CCN1c2ncc(/C=C\c3cn[nH]c3)cc2C(=O)Nc2c(C)ccnc21,-,RT-Y181C,nucleotide incorporation / radiometric,>1 µM
CC(C)(C)c1ccc(-n2nnnc2SCC(=O)Nc2ccc(NC(=O)Cc3cccnc3)cc2Cl)c(Cl)c1,WT,-,PicoGreen / fluorescence,<1 µM
CCc1ccc(-n2c(Br)nnc2SCC(=O)Nc2ccc(C(=O)O)cc2C)c2ccccc12,-,-,nucleotide incorporation / radiometric,<0.05 µM
COC(=O)Cc1cccc(-c2ccc(NC(=O)CSc3nnnn3-c3ccc(C)cc3Cl)c(Cl)c2)c1,-,RT-K103 Y181C,PicoGreen / fluorescence,<1 µM
CCN1c2ncc(CCOc3ccc(CCC(=O)O)c4c3CCCC4)cc2C(=O)N(C)c2cccnc21,-,RT-K103N Y181C,nucleotide incorporation / radiometric,0.1–1 µM
NS(=O)(=O)c1ccc(NC(=O)CSc2nnc(Br)n2-c2ccc(C3CC3)c3c2CCCC3)c(Cl)c1,-,-,nucleotide incorporation / radiometric,<0.05 µM
c1coc(-c2nnc3c4ccccc4c(N4CCc5ccccc5C4)nn23)c1,KER2008,-,RT activity / fluorescence,0.59 µM
COc1ccc2cccc(-n3c(Br)nnc3SCC(=O)Nc3ccc(C(=O)O)cc3Cl)c2c1,-,-,nucleotide incorporation / radiometric,<0.05 µM
Cc1ccc(-n2nnnc2SCC(=O)Nc2ccc(-c3ccc(CC(=O)O)cc3)cc2Cl)c(Cl)c1,-,RT-K103 Y181C,PicoGreen / fluorescence,<1 µM
CCN1c2ncc(CCc3cn[nH]c3)cc2C(=O)Nc2c(C)ccnc21,WT,-,nucleotide incorporation / radiometric,<1 µM
O=C(CSc1nnc(Br)n1-c1ccc(C2CC2)c2ccccc12)Nc1ccc(C(=O)N[C@@H](Cc2ccc(O)cc2)C(=O)O)cc1Cl,-,RT-Y181C,nucleotide incorporation / radiometric,<0.05 µM
Cc1ccc(-n2nccc2SCC(=O)Nc2ccc(-c3ccc(CC(=O)O)cc3)cc2Cl)c(Cl)c1,WT,-,PicoGreen / fluorescence,<1 µM
O=C(CSc1nnc(Br)n1-c1ccc(C2CC2)c2ccccc12)Nc1ccc(C(=O)O)cc1Cl,-,RT-Y181C,nucleotide incorporation / radiometric,<0.05 µM
Cc1cc(C2CC2)cc(Cl)c1-n1c(Br)nnc1SCC(=O)Nc1ccc(S(N)(=O)=O)cc1Cl,-,RT-Y188L,nucleotide incorporation / radiometric,>0.1 µM
O=C(CSc1nnc(Br)n1-c1ccc(C2CC2)cc1Cl)Nc1ccc(C(=O)O)cc1Cl,-,RT-Y188L,nucleotide incorporation / radiometric,>0.1 µM
CC(C)c1ccc(-n2nnnc2SCC(=O)Nc2ccc(-c3ccc(OCCN4CCCC4)cc3)cc2Cl)c(Cl)c1,WT,-,PicoGreen / fluorescence,<1 µM
Cc1cc(S(N)(=O)=O)ccc1NC(=O)CSc1nnc(C)n1-c1ccc(C)c2c1CCCC2,-,-,nucleotide incorporation / radiometric,<0.05 µM
CC(C)(C)c1ccc(-n2nnnc2SCC(=O)Nc2ccc(-c3ccc(OCCN4CCC(C(=O)O)CC4)cc3)cc2Cl)c(Cl)c1,WT,-,PicoGreen / fluorescence,<1 µM
Cc1cc(C)c(-n2c(SCC(=O)Nc3ccc(S(N)(=O)=O)cc3Cl)nnc2C(F)(F)F)c2c1CCCC2,-,RT-Y181C,nucleotide incorporation / radiometric,>0.1 µM
CCN1c2ncc(CCOc3ccc(Nc4cccc(CC(=O)O)c4)cc3C)cc2C(=O)N(C)c2cccnc21,IIIB,-,nucleotide incorporation / radiometric,<0.05 µM
CCNC(=O)c1ccc(NC(=O)CSc2nnc(Br)n2-c2ccc(CC)c3ccccc23)c(Cl)c1,-,RT-Y181C,nucleotide incorporation / radiometric,<0.05 µM
CN(C)CC(=O)NC(C)(C)C#Cc1ccc(NC(=O)CSc2nnnn2-c2ccc(C3CC3)cc2Cl)c(Cl)c1F,-,RT-K103 Y181C,PicoGreen / fluorescence,<1 µM
CCc1ccc(-n2c(Br)nnc2SCC(=O)Nc2ccc(C(=O)NCC3CCNCC3)cc2Cl)c2ccccc12,-,-,nucleotide incorporation / radiometric,>0.1 µM
CCN1c2ncc(CCOc3ccc(CC(=O)O)c4ccccc34)cc2C(=O)Nc2c(C)cc(F)nc21,WT,-,nucleotide incorporation / radiometric,<0.1 µM
CCOC(=O)CCNC(=O)c1ccc(NC(=O)CSc2nnc(Br)n2-c2ccc(C3CC3)c3ccccc23)c(Cl)c1,-,RT-Y181C,nucleotide incorporation / radiometric,<0.05 µM
Cc1cc(C2CC2)c2ccccc2c1-n1c(Br)nnc1SCC(=O)Nc1ccc(C(=O)O)cc1Cl,-,-,nucleotide incorporation / radiometric,<0.05 µM
CC(C)(C#Cc1ccc(NC(=O)CSc2nnnn2-c2ccc(C(C)(C)C)cc2Cl)c(Cl)c1)OCC(=O)Nc1ccccc1,WT,-,PicoGreen / fluorescence,<1 µM
CCc1ccc(-n2c(Br)nnc2SCC(=O)Nc2ccc(C(=O)NCC(OC)OC)cc2Cl)c2ccccc12,-,RT-Y181C,nucleotide incorporation / radiometric,<0.05 µM
CC(C)(C)c1ccc(-n2nnnc2SCC(=O)Nc2ccc(OCC(=O)Nc3ccc(N4CCOCC4)cc3)cc2Cl)c(Cl)c1,-,RT-K103 Y181C,PicoGreen / fluorescence,<1 µM
CCN1c2ncc(CCOc3ccc(-c4ccc(CC(=O)O)cc4O)cc3C)cc2C(=O)N(C)c2cccnc21,IIIB,-,nucleotide incorporation / radiometric,<0.05 µM

The last 5 rows once more:

smiles	strain	mutations	method	result
Cc1cc(C2CC2)c2ccccc2c1-n1c(Br)nnc1SCC(=O)Nc1ccc(C(=O)O)cc1Cl	-	-	nucleotide incorporation / radiometric	<0.05 µM
CC(C)(C#Cc1ccc(NC(=O)CSc2nnnn2-c2ccc(C(C)(C)C)cc2Cl)c(Cl)c1)OCC(=O)Nc1ccccc1	WT	-	PicoGreen / fluorescence	<1 µM
CCc1ccc(-n2c(Br)nnc2SCC(=O)Nc2ccc(C(=O)NCC(OC)OC)cc2Cl)c2ccccc12	-	RT-Y181C	nucleotide incorporation / radiometric	<0.05 µM
CC(C)(C)c1ccc(-n2nnnc2SCC(=O)Nc2ccc(OCC(=O)Nc3ccc(N4CCOCC4)cc3)cc2Cl)c(Cl)c1	-	RT-K103 Y181C	PicoGreen / fluorescence	<1 µM
CCN1c2ncc(CCOc3ccc(-c4ccc(CC(=O)O)cc4O)cc3C)cc2C(=O)N(C)c2cccnc21	IIIB	-	nucleotide incorporation / radiometric	<0.05 µM